Results taken from publication PMC3114464 (Biochemistry, 2011).

Target: T1, IsdA-N1 (NEAT domain of IsdA), apo form (S. aureus, UniProt Q7A655 62-184)
T1 sequence (looked up): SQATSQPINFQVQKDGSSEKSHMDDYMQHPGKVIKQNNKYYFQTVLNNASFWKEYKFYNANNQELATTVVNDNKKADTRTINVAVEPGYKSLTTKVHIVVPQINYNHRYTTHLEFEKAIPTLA
Assay: stopped-flow spectroscopy of heme transfer

B1: IsdB-N2 M362L variant (domain or fragment)
chain: not shown
For B1, the Kd was 16.5 µM.
